Tested on: HIV-1 NL4–3 virus
Conditions: TZM-bl cells

Structure (SMILES) | SI (selectivity index, ratio of CC50/EC50)
COc1ccc(N(C)C(=O)[C@H](Cc2ccccc2)NC(=O)CNS(=O)(=O)c2ccc(OC)cc2)cc1 [Compound 6f, (S)-N-(4-methoxyphenyl)-2-(2-((4-methoxyphenyl)sulfonamido)acetamido)-N-me thyl-3-phenylpropanamide] | >3.77
COc1ccc(N(C)C(=O)[C@H](Cc2ccccc2)NC(=O)CN2CCN(S(=O)(=O)c3ccc(OC)cc3)CC2=O)cc1 [Compound 11g, (S)-N-(4-methoxyphenyl)-2-(2-(4-((4-methoxyphenyl)sulfonyl)-2-oxopiperazin-1-yl)acetamido)-N-methyl-3-phenylpropanamide] | >52.63
COc1ccc(N(C)C(=O)[C@H](Cc2ccccc2)NC(=O)CNS(=O)(=O)c2ccc(F)cc2)cc1 [Compound 6b, (S)-2-(2-((4-fluorophenyl)sulfonamido)acetamido)-N-(4-methoxyphenyl)-N-methyl-3-phenylpropanamide] | >5.88
COc1ccc(N(C)C(=O)[C@H](Cc2ccccc2)NC(=O)CNS(=O)(=O)c2cc(C)cc(C)c2)cc1 [Compound 6h, (S)-2-(2-((3,5-dimethylphenyl)sulfonamido)acetamido)-N-(4-methoxyphenyl)-N-methyl-3-phenylpropanamide] | >4.26
COc1ccc(N(C)C(=O)[C@H](Cc2ccccc2)NC(=O)CN2CCN(S(=O)(=O)c3cccc([N+](=O)[O-])c3)CC2=O)cc1 [Compound 11j, (S)-N-(4-methoxyphenyl)-N-methyl-2-(2-(4-((3-nitrophenyl)sulfonyl)-2-oxopiperazin-1-yl)acetamido)-3-phenylpropanamide] | >48.75
COc1ccc(N(C)C(=O)[C@H](Cc2ccccc2)NC(=O)CN2C(=O)N(CC(=O)N[C@@H](Cc3ccccc3)C(=O)N(C)c3ccc(OC)cc3)S(=O)(=O)c3cc(Cl)ccc32)cc1 [Compound 8e, (2S,2’S)-2,2’-((2,2’-(7-chloro-1,1-dioxido-3-oxo-2H-benzo[e][1,2,4]thiadiazine-2,4(3H)-diyl)bis(acetyl))bis(azanediyl))bis(N-(4-methoxyphenyl)-N-methyl-3-phenylpropanamide)] | >4.76
COc1ccc(N(C)C(=O)[C@H](Cc2ccccc2)NC(=O)CNS(=O)(=O)c2ccc(Cl)cc2)cc1 [Compound 6c, (S)-2-(2-((4-chlorophenyl)sulfonamido)acetamido)-N-(4-methoxyphenyl)-N-methyl-3-phenylpropanamide] | >3.92
COc1ccc(N(C)C(=O)[C@H](Cc2ccccc2)NC(=O)CNS(=O)(=O)c2cccc(N)c2)cc1 [Compound 6q, (S)-2-(2-((3-aminophenyl)sulfonamido)acetamido)-N-(4-methoxyphenyl)-N-methyl-3-phenylpropanamide] | >4.88
COc1ccc(N(C)C(=O)[C@H](Cc2ccccc2)NC(=O)CNS(=O)(=O)c2ccccc2N)cc1 [Compound 6p, (S)-2-(2-((2-aminophenyl)sulfonamido)acetamido)-N-(4-methoxyphenyl)-N-methyl-3-phenylpropanamide] | >4.44
COc1ccc(N(C)C(=O)[C@H](Cc2ccccc2)NC(=O)CNS(=O)(=O)c2ccc(N)cc2)cc1 [Compound 6o, (S)-2-(2-((4-aminophenyl)sulfonamido)acetamido)-N-(4-methoxyphenyl)-N-methyl-3-phenylpropanamide] | >6.06
COc1ccc(N(C)C(=O)[C@H](Cc2ccccc2)NC(=O)CN2C(=O)Nc3ccc(C)cc3S2(=O)=O)cc1 [Compound 8b, (S)-N-(4-methoxyphenyl)-N-methyl-2-(2-(7-methyl-1,1-dioxido-3-oxo-3,4-dihydro −2H-benzo[e][1,2,4]thiadiazin-2-yl)acetamido)-3-phenylpropanamide] | >6.25
